A mixed list of measured activities; the numbers were collected in NIAID ChemDB.

All rows: whole-cell or culture tests; organism: Herpes simplex virus 1; read by: plaque count; measure: inhibition

Inhibition is in % at the dose shown (toxicity tests: loss of growth or viability).

| structure | cell line | dose | strain or isolate | value |
|---|---|---|---|---|
| COc1ccc(NC(=O)Nc2ccc(C)cc2)cc1NC(=O)Nc1ccc(C)cc1 | VERO | 30 µM |  | <50% |
| Nc1ncnc2c1nnn2[C@@H]1c2ccccc2C[C@@H]1O | VERO | 100 µM | F | 0% |
| COc1ccc(NC(=S)Nc2ccc([N+](=O)[O-])cc2)cc1NC(=S)Nc1ccc([N+](=O)[O-])cc1 | VERO | 5 µM |  | 0% |
| CSc1cnc(=O)n([C@H]2C[C@H](O)[C@@H](CO)O2)c1 | HeLa | 200 µM | KOS | 89% |
| Cc1ccc(Cn2cnc(=N)c3[nH]cnc32)cc1 | BSC-1 | 50 µg/mL |  | 0% |
| COc1ccc(C2CC(=O)Nc3nc(-c4cccnc4)nn32)cc1 | VERO | 50 µg/mL | 7401H | 4% |
| CCCCCCCCCCCC(=O)OCC(CO[C@@H]1O[C@H](CO)[C@@H](O)[C@H](O)[C@H]1O)OC(=O)CCCCCCCCCCC | VERO | 50 µg/mL | KOS | 80% |
| C#C[C@H]1O[C@@H](n2cc(C)c(=O)[nH]c2=O)C[C@@H]1O | HELA BU | 2.5 µM | KOS | 3% |
| CC(C)C[C@H](NC(=O)[C@@H]1O[C@H]1C(=O)O)C(=O)NCCCCN=C(N)N | CV-1 | 10 µM | Fukuda | 0% |
| Nc1nc2c(ncn2COC(CO)CO)c(=O)[nH]1 | WI-38 | 200 µM | CL101 | 90% |
| CCCCCc1nc2n(n1)C(c1ccc([N+](=O)[O-])cc1)CC(=O)N2 | VERO | 50 µg/mL | 7401H | 36% |
| O=c1[nH]c(=O)n([C@H]2C[C@H](O)[C@@H](CO)O2)cc1/C=C/C(F)(F)F | HELA BU | 10 µM | KOS | >99% |
| O=S(=O)(c1ccc(OCc2ccc(Cl)cc2)cc1)c1ccc(OCc2ccc(Cl)cc2)cc1 | VERO | 5 µM |  | <50% |
| CCC(=O)C(CCCCCCOc1ccc(OC)cc1Cl)C(=O)CC | VERO | 4 µg/mL | KOS | 64% |
| Cc1ccc(NC(=S)Nc2ccc(Cl)cc2)cc1NC(=S)Nc1ccc(Cl)cc1 | VERO | 30 µM |  | <50% |
| O=C1CC(c2ccc([N+](=O)[O-])cc2)n2nc(-c3ccncc3)nc2N1 | VERO | 50 µg/mL | 7401H | 0% |
| Cc1cn([C@H]2C[C@H](O)[C@@H](CO)O2)c(=O)[nH]c1=O | HeLa | 25 µM | KOS | 0% |
| CCCCCCCC/C=C\CCCCCCCC(=O)OC(COC(=O)CCCCCCCCCCCCCCCCCCCCC)CO[C@@H]1O[C@H](CO)[C@@H](O)[C@H](O)[C@H]1O | VERO | 50 µg/mL | KOS | inactive |
| CN1C(=O)NC(=O)N([C@H]2C[C@H](O)[C@@H](CO)O2)C1(C)C | VERO | 50 µM | 42D | 83% |
| C/C=C/c1cn([C@H]2C[C@H](O)[C@@H](CO)O2)c(=O)[nH]c1=O | VERO | 10 µM | C42ACG-R | 9% |
| CCCCCCCCCCCC(=O)OCC(CO[C@@H]1O[C@H](CO)[C@H](O)[C@H](O)[C@H]1O)OC(=O)CCCCCCCCCCC | VERO | 50 µg/mL | KOS | 80% |
| Cc1cccc(NS(=O)(=O)c2ccc(Oc3ccc(S(=O)(=O)Nc4cccc(C)c4)cc3)cc2)c1 | VERO | 30 µM |  | >50% |
| N=c1ncn(Cc2cccc([N+](=O)[O-])c2)c2nc[nH]c12 | BSC-1 | 6 µg/mL |  | 0% |
| Cc1nnc2nc3c(nn12)c1ccccc1n3C | BSC-1 | 60 µg/mL |  | >99% |
| Nc1nc(=S)c2[nH]c(-c3cscn3)nc2[nH]1 | VERO | 1 µg/mL |  | 0% |
| CCCc1nc2n(n1)C(c1ccc(OC)cc1)CC(=O)N2 | VERO | 50 µg/mL | 7401H | 15% |
| N=c1ncn(CC2CCCCC2)c2nc[nH]c12 | BSC-1 | 25 µg/mL |  | 0% |
| CCCCCc1nc2n(n1)C(c1ccc(OC)cc1)CC(=O)N2 | VERO | 50 µg/mL | 7401H | 6% |
| CC/C=C/C/C=C/C/C=C/CCCCCCCC(=O)OC[C@H](CO[C@@H]1O[C@H](CO)[C@@H](O)[C@H](O)[C@H]1O)OC(=O)CCCCCCC/C=C/C/C=C/C/C=C/CC | VERO | 50 µg/mL | KOS | 100% |
| O=S(=O)(c1ccc(OCc2ccc(Br)cc2)cc1)c1ccc(OCc2ccc(Br)cc2)cc1 | VERO | 5 µM |  | <50% |
| C=Cc1cn([C@H]2C[C@H](O)[C@@H](CO)O2)c(=O)[nH]c1=O | HeLa | 10 µM | KOS | >99% |
| CSC(=Nc1ccc(Oc2ccc(/C=C(/Nc3ccccc3)SC)cc2)cc1)Nc1ccccc1 | VERO | 30 µM |  | <50% |
| Cc1ccccc1Cn1cnc(=N)c2[nH]cnc21 | BSC-1 | 12 µg/mL |  | 0% |
| CC(C)[C@H](NC(=O)[C@H](CCCN=C(N)N)NC(=O)N[C@@H](Cc1ccccc1)C(=O)O)C(=O)N[C@H](C=O)CCCN=C(N)N | CV-1 | 40 µM | Fukuda | 60% |
| O=C1CC(c2ccccc2)n2nc(-c3ccncc3)nc2N1 | VERO | 50 µg/mL | 7401H | 17% |
| C/C=C/c1cn([C@H]2C[C@H](O)[C@@H](CO)O2)c(=O)[nH]c1=O | HELA BU | 10 µM | B2006 (TK-) | 0% |
| CCCCCCCCCC(=O)OCC(CO[C@@H]1O[C@H](CO)[C@@H](O)[C@H](O)[C@H]1O)OC(=O)CCCCCCCCC | VERO | 50 µg/mL | KOS | inactive |
| N=c1ncn(Cc2ccc(Cl)cc2Cl)c2nc[nH]c12 | BSC-1 | 12 µg/mL |  | 0% |
| COc1ccc(NC(=S)Nc2ccc(Cl)cc2)cc1NC(=S)Nc1ccc(Cl)cc1 | VERO | 5 µM |  | 0% |
| CC(=O)OC[C@H]1O[C@H](O[C@H]2O[C@@H](COC(=O)/C=C/c3ccccc3)[C@H](O)C2(COC(C)=O)OC(=O)/C=C/c2ccccc2)[C@H](OC(C)=O)[C@@H](O)[C@@H]1OC(C)=O | VERO | 100 µg/mL | 7401H | 7.3% |

3 of the rows above, restated:

| structure | cell line | dose | strain or isolate | value |
|---|---|---|---|---|
| O=C1CC(c2ccc([N+](=O)[O-])cc2)n2nc(-c3ccncc3)nc2N1 | VERO | 50 µg/mL | 7401H | 0% |
| Nc1ncnc2c1nnn2[C@@H]1c2ccccc2C[C@@H]1O | VERO | 100 µM | F | 0% |
| Cc1ccc(NC(=S)Nc2ccc(Cl)cc2)cc1NC(=S)Nc1ccc(Cl)cc1 | VERO | 30 µM |  | <50% |

"inactive" is the filed call at that dose; no cut-off is given. Blank or dashed fields: not listed here. Lines come from different laboratories, so protocols vary.